Molecular target: T1, RahU (RahU-His6, membrane interaction studies) (Pseudomonas aeruginosa, UniProt Q9I710)
T1 construct: gene PA0122
Settings: 4 uM RahU, 20 mM Tris versus 10 mM Hepes, pH 7.4; equimolar CPE/POPC/cholesterol LUVs; direct competition or allosteric site undecided

NC(CO)(CO)CO [Tris]
SPR and co-sedimentation, interference with binding to CPE vesicles: Tris indeed interferes with RahU binding to the membranes
